# RC index of single-base changes in HIV-1 integrase

Values reported by Al-Mawsawi et al. 2014 (doi:10.1186/s12977-014-0124-6).

Protein: integrase of HIV-1 NL4-3, numbered from its first residue. The source prints no sequence; the chain below is taken from UniProt P12497, a closely related isolate, and fits the source at the 252 positions it covers.
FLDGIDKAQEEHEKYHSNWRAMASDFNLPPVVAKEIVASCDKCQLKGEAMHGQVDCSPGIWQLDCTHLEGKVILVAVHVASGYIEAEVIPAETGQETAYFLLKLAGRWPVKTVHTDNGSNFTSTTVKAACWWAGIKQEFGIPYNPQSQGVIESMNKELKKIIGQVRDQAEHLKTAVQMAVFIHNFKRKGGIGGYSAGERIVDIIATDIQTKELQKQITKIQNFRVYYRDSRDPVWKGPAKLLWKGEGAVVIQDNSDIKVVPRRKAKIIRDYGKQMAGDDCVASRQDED
"Other frame" gives the effect on an overlapping gene as the source lists it; other overlaps (genes, RNA elements) are not shown.

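Seven fragments of pNL4-3 were mutated by error-prone PCR, and each virus pool was passaged in CEM T cells. Sequencing gave the RC index: frequency after two rounds over frequency in the input plasmid.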

Values are the RC index; higher means better tolerated. The authors read about 0.1 or less as lethal, 0.1-0.2 as attenuated and 0.2 or more as tolerated.
Substitutions are written as wild-type residue, site number, new residue.
Input reads are the counts in the plasmid library.
Since each clone held several changes (about five per kb), neutral changes can read low.
An index over 1, which the authors read as above wild type, was rare (1.9% of all changes in the genome).
Base changes are numbered along pNL4-3.

V110E (base T4558A, input reads 345) gave 0.0229. For R107S (base A4550T, input reads 192) the result was 0.0412. V77I (base G4458A, input reads 402) gave 0.0695. For D3V (base A4237T, input reads 384) the result was 0.0470. D232V (base A4924T, input reads 457) gave 0.0158. D278Y (base G5061T, other frame Vif silent, input reads 69) read 0.423. G189W (base G4794T, input reads 249) gave 0.209. S123R (base A4596C, input reads 42) read 0.0471.

For M50I (base G4379C, input reads 74) the result was 0.108. For N222K (base T4895A, input reads 230) the result was 0.102. K240T (base A4948C, input reads 92) gave 0.0488. With H78L (base A4462T, input reads 236) the assay gave 0.0592. F223L (base T4896C, input reads 150) read 0.156. For V31L (base G4320T, input reads 124) the result was 0.109. V259L (base G5004C, input reads 42) read 0.160. S119N (base G4585A, input reads 488) gave 0.158.

For F121I (base T4590A, input reads 351) the result was 0.0338. With S81I (base G4471T, input reads 168) the assay gave 0.0475. With M178I (base G4763A, input reads 255) the assay gave 0.140. F121S (base T4591C, input reads 330) read 0.120. For N27I (base A4309T, input reads 493) the result was 0.0457. P238T (base C4941A, input reads 68) gave 0.165. For P109Q (base C4555A, input reads 192) the result was 0.124. P233S (base C4926T, input reads 361) read 0.105.

I60V (base A4407G, input reads 362) read 0.0221. With V77G (base T4459G, input reads 91) the assay gave 0.0878. For I73V (base A4446G, input reads 174) the result was 0.0803. For I60K (base T4408A, input reads 264) the result was 0.0303. With E152V (base A4684T, input reads 207) the assay gave 0.0431. P109T (base C4554A, input reads 163) gave 0.0971. For L242H (base T4954A, input reads 239) the result was 0.0282. A129S (base G4614T, input reads 146) gave 0.0948.

E11K (base G4260A, input reads 187) gave 0.868. With V250A (base T4978C, input reads 164) the assay gave 0.151. V260L (base G5007T, input reads 137) gave 0.0655. With T218A (base A4881G, input reads 195) the assay gave 0.0554. With N27K (base C4310A, input reads 101) the assay gave 0.134. With W108L (base G4552T, input reads 152) the assay gave 0.169. With I257K (base T4999A, input reads 322) the assay gave 0.118. With A23D (base C4297A, input reads 356) the assay gave 0.0760.

I182T (base T4774C, input reads 313) read 0.0742. With Q9R (base A4255G, input reads 436) the assay gave 0.0879. F1L (base T4230C, input reads 140) gave 0.129. L74V (base T4449G, input reads 154) read 0.0389. With Q62L (base A4414T, input reads 336) the assay gave 0.0238. For K264I (base A5020T, input reads 343) the result was 0.0196. For A86S (base G4485T, input reads 176) the result was 0.0681. E138D (base A4643T, input reads 321) gave 0.0431.

With H16L (base A4276T, input reads 489) the assay gave 0.0876. With C56R (base T4395C, input reads 369) the assay gave 0.0866. S17N (base G4279A, input reads 315) read 0.236. A179G (base C4765G, input reads 84) gave 0.0850. With E96G (base A4516G, input reads 203) the assay gave 0.0779. With G245D (base G4963A, input reads 407) the assay gave 0.0937. G94R (base G4509A, input reads 356) read 0.189. S255N (base G4993A, input reads 309) read 0.145.

F223Y (base T4897A, input reads 200) read 0.0270. K42I (base A4354T, input reads 607) gave 0.0446. C130G (base T4617G, input reads 49) gave 0.161. Q44E (base C4359G, input reads 82) read 0.0550. With I151L (base A4680T, input reads 424) the assay gave 0.0337. S81R (base T4472A, input reads 310) gave 0.0193. With K103R (base A4537G, input reads 173) the assay gave 0.0572. A239E (base C4945A, input reads 60) gave 0.150.

For K160I (base A4708T, input reads 165) the result was 0.0541. For K240M (base A4948T, input reads 262) the result was 0.0514. S24R (base T4301A, input reads 389) gave 0.0406. K236N (base A4937T, input reads 323) gave 0.0625. With H171L (base A4741T, input reads 404) the assay gave 0.0354. With D270H (base G5037C, input reads 51) the assay gave 0.0440.

The first 5 entries again:

mutation,base,other frame,input reads,replication capacity index
V110E,T4558A,none,345,0.0229
R107S,A4550T,none,192,0.0412
V77I,G4458A,none,402,0.0695
D3V,A4237T,none,384,0.0470
D232V,A4924T,none,457,0.0158